Anti-infective test results gathered from many reports (values: NIAID ChemDB through PubChem).

Common to all: host cell toxicity; cell line: ATH8; endpoint: CC50

Neighbouring rows are from separate reports. An empty or dashed field is not shown. CCn: concentration that lowers growth or viability of the cells by n%.

smiles | read by | result
Nc1ccn([C@H]2CC[C@@H](CO)O2)c(=O)n1 | - | >50 µM
Nc1ncnc2c1ncn2[C@H]1CC[C@@H](CO)O1 | - | >1000 µM
Nc1ncnc2c1ncn2CCOCP(=O)(O)O | - | 80 µM
Nc1ncnc2c1ncn2[C@H]1C=C[C@@H](CO)O1 | - | 52 µM
Nc1ncnc2c1ncn2[C@H]1CC[C@@H](CO)O1 | - | >200 µM
Cc1cn([C@H]2C[C@H](Br)[C@@H](CO)O2)c(=O)[nH]c1=O | - | >180 µM
Nc1nc2c(ncn2C/C=C/CO)c(=O)[nH]1 | - | >200 µM
Cc1cc(-c2ccc(N=Nc3ccc4c(S(=O)(=O)O)cc(S(=O)(=O)O)c(N)c4c3O)c(C)c2)ccc1N=Nc1ccc2c(S(=O)(=O)O)cc(S(=O)(=O)O)c(N)c2c1O | - | >100 µg/mL
CSC[C@H](NC(=O)COc1cccc2cnccc12)C(=O)N[C@@H](Cc1ccccc1)[C@H](O)C(=O)N1CSC(C)(C)[C@H]1C(=O)NC(C)(C)C | - | 40 µM
Nc1ccn([C@H]2CC[C@@H](CO)O2)c(=O)n1 | - | 35 µM
O=c1ccn([C@H]2CC[C@@H](CO)O2)c(=O)[nH]1 | - | 1000 µM
CNc1nc(=O)n([C@H]2C[C@H](N=[N+]=[N-])[C@@H](CO)O2)cc1C | - | >100 µM
Cc1cn([C@H]2C[C@H](N=[N+]=[N-])[C@@H](CO)O2)c(=O)[nH]c1=O | - | 40 µM
O=c1ccn([C@H]2CC[C@@H](CO)O2)c(=O)[nH]1 | - | >500 µM
CNc1ncnc2c1ncn2[C@@H]1C[C@H](CO)[C@H]1CO | - | >500 µM
Nc1ncnc2c1ncn2[C@H]1C=C[C@@H](CO)O1 | - | 52 µM
Nc1ncnc2c1ncn2CC#CCCl | - | <100 µM
CCc1cn([C@H]2C[C@H](N=[N+]=[N-])[C@@H](CO)O2)c(=O)[nH]c1=O | - | >100 µM
Cc1cn([C@H]2CC[C@@H](CO)O2)c(=O)[nH]c1=O | - | >1000 µM
Nc1ccn([C@H]2C[C@H]3OC[C@H]3O2)c(=O)n1 | - | >500 µM
Nc1ncn([C@H]2CC[C@@H](CO)O2)c(=O)n1 | - | >10 µM
Nc1ccn(C/C=C/CCl)c(=O)n1 | - | <100 µM
NC(=O)c1ncn([C@@H]2O[C@H](CO)[C@@H](O)[C@H]2O)n1 | - | >2.5 µM
Nc1ncnc2c1ncn2[C@@H]1C[C@H](CO)[C@H]1CO | - | >100 µM
Nc1nc(=O)n(C=C=CCO)cc1F | - | >500 µM
Nc1ccn([C@H]2CC[C@@H](CO)O2)c(=O)n1 | - | 18 µg/mL
Nc1ccn([C@H]2CC[C@@H](CO)O2)c(=O)n1 | - | >10 µM
Nc1nc(=O)n([C@H]2CC[C@@H](CO)O2)cc1F | - | >50 µM
Nc1ccn([C@H]2C=C[C@@H](CO)O2)c(=O)n1 | trypan blue | 30 µM
Cc1ccc(C(=O)Nc2ccc(S(=O)(=O)O)c3cc(S(=O)(=O)O)cc(S(=O)(=O)O)c23)cc1NC(=O)c1cccc(NC(=O)Nc2cccc(C(=O)Nc3cc(C(=O)Nc4ccc(S(=O)(=O)O)c5cc(S(=O)(=O)O)cc(S(=O)(=O)O)c45)ccc3C)c2)c1 | - | <250 µg/mL
Nc1ncnc2c1ncn2[C@H]1CC[C@@H](CO)O1 | - | 600 µM
Cc1cn([C@@H]2C[C@H](CO)[C@@H](N=[N+]=[N-])C2)c(=O)[nH]c1=O | - | >100 µg/mL
CC(C)(C)NC(=O)C1N(C(=O)[C@@H](O)[C@H](Cc2ccccc2)NC(=O)[C@H](CS(C)(=O)=O)NC(=O)COc2cccc3ccccc23)CSC1(C)C | - | 16 µM
Nc1ncnc2c1ncn2C=C=CCO | - | <1000 µM
O=c1[nH]cnc2c1ncn2[C@H]1CC[C@@H](CO)O1 | - | >100 µM
Nc1ncnc2c1ncn2[C@H]1CC[C@@H](CO)O1 | - | >500 µM
Nc1nc(N)c2ncn([C@@H]3C[C@H](CO)[C@H]3CO)c2n1 | - | >500 µM
CC(C)[C@H](NC(=O)N(C)Cc1ccccn1)C(=O)N[C@@H](Cc1ccccc1)[C@@H](O)[C@H](O)[C@H](Cc1ccccc1)NC(=O)[C@@H](NC(=O)N(C)Cc1ccccn1)C(C)C | - | >10 µM
Cc1cn([C@H]2C=C[C@@H](CO)O2)c(=O)[nH]c1=O | - | 110 µM
Nc1nc2c(ncn2C/C=C\CO)c(=O)[nH]1 | - | ~500 µM
Nc1ncnc2c1ncn2CCOCP(=O)(O)O | - | 200 µM
Nc1ccn([C@@H]2O[C@H](CO)C3OC32)c(=O)n1 | - | >5 µM
NC(=O)c1[nH]nc([C@@H]2O[C@H](CO)[C@@H](O)[C@H]2O)c1O | - | <100 µg/mL
CN(C)C=Nc1ccn([C@H]2C[C@H](F)[C@@H](CO)O2)c(=O)n1 | - | >200 µM
CC(C)(C)NC(=O)[C@@H]1CSCN1C(=O)[C@@H](O)[C@H](Cc1ccccc1)NC(=O)[C@H](CC(N)=O)NC(=O)COc1cccc2ccccc12 | - | >50 µM

Repeating the final 5 entries:

smiles	read by	result
Nc1ncnc2c1ncn2CCOCP(=O)(O)O	-	200 µM
Nc1ccn([C@@H]2O[C@H](CO)C3OC32)c(=O)n1	-	>5 µM
NC(=O)c1[nH]nc([C@@H]2O[C@H](CO)[C@@H](O)[C@H]2O)c1O	-	<100 µg/mL
CN(C)C=Nc1ccn([C@H]2C[C@H](F)[C@@H](CO)O2)c(=O)n1	-	>200 µM
CC(C)(C)NC(=O)[C@@H]1CSCN1C(=O)[C@@H](O)[C@H](Cc1ccccc1)NC(=O)[C@H](CC(N)=O)NC(=O)COc1cccc2ccccc12	-	>50 µM